This assay deals with SARS-CoV-2 RBD E484K mutant (SARS-CoV-2), P0DTC2. Conditions: remark: other sources report otherwise.

B1: Nb20 (VHH)
VHH: QVQLVESGGGLVQAGGSLRLSCAVSGAGAHRVGWFRRAPGKEREFVAAIGASGGMTNYLDSVKGRFTISRDNAKNTIYLQMNSLKPQDTAVYYCAARDIETAEYIYWGQGTQVTVSS
In the case of B1, the binding affinity fold change relative to RBD WT was under -1000 fold.

Values taken from patent publication US20240043505A1.
